Measured values from several laboratories, pooled; numbers as filed in NIAID ChemDB.

Common to all: tests in culture; organism: Herpes simplex virus 2; read by: plaque count; measure: inhibition

"inactive" is the filed call at that dose; no cut-off is given.

compound	tested at	cell line	strain or isolate	result
CCCCCCCCCCCCCCCCCCCCCC(=O)OCC(CO[C@@H]1O[C@H](CO)[C@@H](O)[C@H](O)[C@H]1O)OC(=O)CCCCCCCCCCCCCCCCCCCCC	50 µg/mL	VERO	186	inactive
CSc1cnc(=O)n([C@H]2C[C@H](O)[C@@H](CO)O2)c1	400 µM	HeLa	333	97%
CC(C)CCCC(COS(=O)(=O)O)C1CCC2C3CC=C4C[C@H](O)[C@@H](OS(=O)(=O)O)CC4(C)C3CCC12C	80 µg/mL	VERO	G	100%
CCC(=O)C(CCCCCCOc1ccc(OC)cc1Cl)C(=O)CC	5 µg/mL	VERO	333	72%
CN1C(=O)NC(=O)N([C@H]2C[C@H](O)[C@@H](CO)O2)C1(C)C	50 µM	VERO	35D	40%
O=S(=O)(c1ccc(OCc2ccc(Cl)cc2)cc1)c1ccc(OCc2ccc(Cl)cc2)cc1	1 µM	VERO	-	>50%
Nc1ncnc2c1ncn2[C@@H]1O[C@H](CO)[C@@H](O)[C@@H]1O	25 µM	VERO	G	0%
C/C=C/c1cn([C@H]2C[C@H](O)[C@@H](CO)O2)c(=O)[nH]c1=O	100 µM	VERO	B4327 UR2	<0%
CCc1cn([C@H]2C[C@H](O)[C@@H](CO)O2)c(=O)[nH]c1=O	10 µM	HeLa	333	>99%
O=c1ccn(N2C[C@H](CO)[C@H]2CO)c(=O)[nH]1	10 µg/mL	VERO	-	0%
CC(C)=CCCC(CO)C1CCC2C3CC=C4C[C@H](O)[C@@H](O)CC4(C)C3CCC12C	20 µg/mL	VERO	G	51.5%
Nc1nc2c(ncn2COC(CO)CO)c(=O)[nH]1	2 µM	WI-38	G	90%
CSC(=NCCc1ccccc1)Nc1ccc(Oc2ccc(/C=C(/NCCc3ccccc3)SC)cc2)cc1	10 µM	VERO	-	>50%
CC(C)=CCCC(COS(=O)(=O)O)C1CCC2C3CC=C4C[C@H](O)[C@@H](OS(=O)(=O)O)CC4(C)C3CCC12C	40 µg/mL	VERO	G	21.4%
CCCc1cn([C@H]2C[C@H](O)[C@@H](CO)O2)c(=O)[nH]c1=O	10 µM	HELA BU	333	91%
CCCCC/C=C\C/C=C\CCCCCCCC(=O)OCC(CO[C@@H]1O[C@H](CO)[C@@H](O)[C@H](O)[C@H]1O)OC(=O)CCCCCCC/C=C\C/C=C\CCCCC	50 µg/mL	VERO	186	50%
O=C(O)C(O)c1ccccc1	10 µg/mL	CaSki	G	100%
CC/C=C/C/C=C/C/C=C/CCCCCCCC(=O)OCC(CO[C@@H]1O[C@H](CO)[C@H](O)[C@H](O)[C@H]1O)OC(=O)CCCCCCC/C=C\C/C=C\CCCCC	50 µg/mL	VERO	186	90%
NC(=Nc1ccc(Cc2ccc(N=C(N)c3ccccc3)cc2)cc1)c1ccccc1	10 µM	VERO	-	>90%
O=c1[nH]c(=O)n([C@H]2C[C@H](O)[C@@H](CO)O2)cc1/C=C/C(F)(F)F	10 µM	HELA BU	333	81%
C/C=C/c1cn([C@@H]2O[C@H](CO)[C@@H](O)[C@@H]2O)c(=O)[nH]c1=O	250 µM	VERO	91075	0%
CCCCCCCCCCCCCCCCCCCCCC(=O)OC(COC(=O)CCCCCCCCCCCCCCCCC)CO[C@@H]1O[C@H](CO)[C@@H](O)[C@H](O)[C@H]1O	50 µg/mL	VERO	186	inactive

Again, the opening 2 rows:

compound | tested at | cell line | strain or isolate | result
CCCCCCCCCCCCCCCCCCCCCC(=O)OCC(CO[C@@H]1O[C@H](CO)[C@@H](O)[C@H](O)[C@H]1O)OC(=O)CCCCCCCCCCCCCCCCCCCCC | 50 µg/mL | VERO | 186 | inactive
CSc1cnc(=O)n([C@H]2C[C@H](O)[C@@H](CO)O2)c1 | 400 µM | HeLa | 333 | 97%

Inhibition is in % at the dose shown (toxicity tests: loss of growth or viability). Blank or dashed fields: not listed here. Conditions beyond the fields shown may differ between rows.